Pooled drug test results. Numbers come from NIAID ChemDB, via PubChem.

All rows: toxicity to cultured cells; cells: MT-4; endpoint: CC50

CCn: concentration that lowers growth or viability of the cells by n%. Conditions beyond the fields shown may differ between rows.

{"SMILES": "CCc1c(Cc2cc(Cl)cc(Cl)c2)n(COC/C(C)=C/c2ccccc2)c(=O)[nH]c1=O", "method": "MTT", "value": "32 µM"}
{"SMILES": "CC(=O)/C=C(\\C)OCCCCCCn1c(=O)c(C)cn([C@@H]2O[C@H](CO[Si](C)(C)C(C)(C)C)C3(OS(=O)(=O)C=C3N)[C@H]2O[Si](C)(C)C(C)(C)C)c1=O", "value": "8.8 µM"}
{"SMILES": "CCc1c(Cc2cc(Cl)cc(Cl)c2)n(COC2CCc3ccccc32)c(=O)[nH]c1=O", "method": "MTT", "value": "35 µM"}
{"SMILES": "CC(=O)C(CCCCCCCn1c(=O)c(C)cn([C@@H]2O[C@H](CO[Si](C)(C)C(C)(C)C)C3(OS(=O)(=O)C=C3N)[C@H]2O[Si](C)(C)C(C)(C)C)c1=O)C(C)=O", "value": ">250 µM"}
{"SMILES": "COc1c(C(=O)/C=C(/C)Nc2ccccc2)c(O)c(S(=O)(=O)Oc2ccc(F)cc2)c2occc12", "method": "MTT", "value": "370 µM"}
{"SMILES": "O=C(CCCCCNCCCCCNCc1ccccc1)Nc1ccn([C@@H]2CS[C@@H](COC(=O)CCCCCNCCCCCNCc3ccccc3)O2)c(=O)n1", "value": ">50 µM"}
{"SMILES": "O=C1Nc2ccc(Cl)cc2S(=O)(=O)n2cccc21", "value": ">200 µM"}
{"SMILES": "COc1c(-c2cc(C)n(-c3ccccc3)n2)c(O)c(S(=O)(=O)OC2CCCCC2)c2occc12", "method": "MTT", "value": "210 µM"}
{"SMILES": "CCOCn1c(Cc2cc(Cl)cc(Cl)c2)c(CC)c(=O)[nH]c1=O", "method": "MTT", "value": "36 µM"}
{"SMILES": "Cc1ccc(C(C)C)c(O)c1", "method": "MTT", "value": "188 µg/mL"}
{"SMILES": "Cc1cc(C)cc(S(=O)(=O)c2c(C(N)=O)[nH]c3c(Cl)cc(Cl)cc23)c1", "method": "MTT", "value": ">200 µM"}
{"SMILES": "C=C(c1cccc2ccccc12)c1c(C)c(=O)[nH]c(=O)n1COCc1ccccc1", "method": "MTT", "value": "30.97 µM"}
{"SMILES": "CCOC(=O)c1cccn1S(=O)(=O)c1cc(Cl)ccc1NC(=O)c1ccccc1", "value": "155 µM"}
{"SMILES": "COC(=O)[C@H](C)NP(=O)(OC[C@@H]1C=C[C@H](n2cc(C)c(=O)[nH]c2=O)O1)Oc1ccccc1", "value": ">100 µM"}
{"SMILES": "C=C1CN(S(=O)(=O)c2ccc(Br)cc2)CCCN(Cc2ccccc2)CCCN(S(=O)(=O)c2ccc(Br)cc2)C1", "method": "trypan blue / propidium iodide", "value": "47.7 µM"}
{"SMILES": "COc1ccc(C(C)c2c(C)c(=O)[nH]c(=O)n2COCc2ccccc2)cc1", "method": "MTT", "value": ">329 µM"}
{"SMILES": "CCOCn1c(Cc2ccccc2)c(C(C)C)c(=O)[nH]c1=O", "method": "MTT", "value": ">100 µM"}
{"SMILES": "c1ccc(CO[C@@H]2[C@H](OCc3ccccc3)[C@@H]3OC[C@@H](O3)[C@H]2OCc2ccccc2)cc1", "method": "MTT", "value": ">200 µg/mL"}
{"SMILES": "Cc1cc(C#N)cc(C)c1Oc1nc(Nc2ccc(C#N)cc2)ncc1SCC(=O)NC1CC1", "method": "MTT", "value": "27.1 µM"}
{"SMILES": "Cc1c(C(C)c2ccccc2)n(COCc2ccccc2)c(=O)[nH]c1=O", "method": "MTT", "value": ">357 µM"}
{"SMILES": "CC(C)(C)OC(C(=O)O)c1c(-c2ccc3c(c2)CCCO3)ccc2ccccc12", "method": "ATP", "value": ">50 µM"}
{"SMILES": "Cc1cc(C#N)cc(C)c1Oc1nc(Nc2ccc(C#N)cc2)ncc1SCC(=O)NC1CCN(C(=O)OC(C)(C)C)CC1", "method": "MTT", "value": ">208.4 µM"}
{"SMILES": "C=C1CN(S(C)(=O)=O)CCCN(Cc2ccccc2)CCCN(S(C)(=O)=O)C1", "method": "trypan blue / propidium iodide", "value": ">75 µM"}
{"SMILES": "Cc1ccccc1C(C)c1c(C)c(=O)[nH]c(=O)n1COCc1ccccc1", "method": "MTT", "value": ">343 µM"}
{"SMILES": "C=C1CN(S(=O)(=O)c2ccc(C)cc2)CCCN(C(C)C)CCCN(S(=O)(=O)c2ccc(C)cc2)C1", "method": "trypan blue / propidium iodide", "value": "38.9 µM"}
{"SMILES": "COc1c(-c2cc(C)on2)c(O)c(S(=O)(=O)Oc2ccc([N+](=O)[O-])cc2)c2occc12", "method": "MTT", "value": "280 µM"}
{"SMILES": "Cc1ccc(Nc2c([N+](=O)[O-])ncn2CC2=CC(=O)C(=O)CN2C)cc1", "method": "MTT", "value": "25.4 µM"}
{"SMILES": "CCOC(=O)c1cccn1S(=O)(=O)c1cccc(NC=O)c1", "value": ">200 µM"}
{"SMILES": "Cc1cc(C#N)cc(C)c1Oc1nc(Nc2ccc(C#N)cc2)ncc1SCC(=O)NCCN1CCOCC1", "method": "MTT", "value": "21.8 µM"}
{"SMILES": "Nc1ccn([C@H]2CS[C@@H](COC(=O)CCCCCNCCCCNCc3ccccc3)O2)c(=O)n1", "value": ">50 µM"}
{"SMILES": "COc1c2ccoc2c(S(=O)(=O)OC2CCCC2)c2oc(C)cc(=O)c12", "method": "MTT", "value": "580 µM"}
{"SMILES": "Cc1cc(C)nc(NS(=O)(=O)c2ccc(N=C3C(=O)N(CN4CCN(c5cc6c(cc5F)c(=O)c(C(=O)O)cn6C5CC5)CC4)c4ccccc43)cc2)n1", "method": "MTT", "value": "114.2 µM"}
{"SMILES": "COc1c(C(=O)/C=C(/C)Nc2ccc([N+](=O)[O-])cc2)c(O)c(S(=O)(=O)Oc2ccc([N+](=O)[O-])cc2)c2occc12", "method": "MTT", "value": "380 µM"}
{"SMILES": "Cc1cn([C@H]2C[C@H](N=[N+]=[N-])[C@@H](COP(=O)(O)C(=O)NCCO)O2)c(=O)[nH]c1=O", "method": "MTT", "value": "2400 µM"}
{"SMILES": "CN1CC(=O)C(=O)C=C1Cn1cnc([N+](=O)[O-])c1Nc1ccc(Cl)cc1", "method": "MTT", "value": ">250 µM"}
{"SMILES": "CCC(c1ccccc1C)c1c(C)c(=O)[nH]c(=O)n1COCc1ccccc1", "method": "MTT", "value": "43.12 µM"}
{"SMILES": "COc1ccc(N2CCN(CN3C(=O)C(=Nc4ccc(S(=O)(=O)Nc5nc(C)cc(C)n5)cc4)c4ccccc43)CC2)cc1", "method": "MTT", "value": "44.4 µM"}
{"SMILES": "Cc1cn([C@H]2C[C@H](N=[N+]=[N-])[C@@H](COP(=O)(O)CO)O2)c(=O)[nH]c1=O", "method": "MTT", "value": "2800 µM"}
{"SMILES": "Nc1nc2c(ncn2COCCO)c(=O)[nH]1", "method": "MTT", "value": ">555 µM"}
{"SMILES": "Cc1cc(C#N)cc(C)c1Oc1nc(Nc2ccc(C#N)cc2)ncc1SCC(=O)N1CCN(C(=O)OC(C)(C)C)CC1", "method": "MTT", "value": ">208.4 µM"}
{"SMILES": "COc1cc(OC)cc(C(C)(O)c2c(C)c(=O)[nH]c(=O)n2COCc2ccccc2)c1", "method": "MTT", "value": "144 µM"}
{"SMILES": "CCOC(=O)c1cccn1S(=O)(=O)c1ccc([N+](=O)[O-])cc1", "value": ">200 µM"}
{"SMILES": "Cc1nc2ccccc2c(C2CCCCC2)c1C(OC(C)(C)C)C(=O)O", "method": "ATP", "value": ">50 µM"}
{"SMILES": "CCCCCCNC(=O)P(=O)(O)OC[C@H]1O[C@@H](n2cc(C)c(=O)[nH]c2=O)C[C@@H]1N=[N+]=[N-]", "method": "MTT", "value": "1500 µM"}
{"SMILES": "Cc1cn([C@@H]2O[C@H](CO[Si](C)(C)C(C)(C)C)C3(OS(=O)(=O)C=C3N)[C@H]2O[Si](C)(C)C(C)(C)C)c(=O)n(CCCO/C(=C\\C(=O)c2ccccc2)c2ccccc2)c1=O", "value": "≥250 µM"}
{"SMILES": "CCc1c(Cc2cc(Cl)cc(Cl)c2)n(COC/C=C/c2ccccc2)c(=O)[nH]c1=O", "method": "MTT", "value": "34 µM"}
{"SMILES": "CC(C)(C)OC(=O)N(CCCCCC(=O)Nc1ccn([C@H]2CS[C@@H](COC(=O)CCCCCN(Cc3ccccc3)C(=O)OC(C)(C)C)O2)c(=O)n1)Cc1ccccc1", "value": "100 µM"}
{"SMILES": "Cc1cc(C)nc(NS(=O)(=O)c2ccc(N=C3C(=O)N(CN4CCN(c5ccc([N+](=O)[O-])cc5)CC4)c4ccccc43)cc2)n1", "method": "MTT", "value": "42.62 µM"}
{"SMILES": "CC(C)(C)OC(=O)N(CCCCCCN(Cc1ccccc1)C(=O)OC(C)(C)C)CCCCCC(=O)Nc1ccn([C@H]2CS[C@@H](CO)O2)c(=O)n1", "value": "10 µM"}
{"SMILES": "CC(C)(C)OC(C(=O)O)C1=C(c2ccc3c(c2)CCCO3)c2ccccc2OC1", "method": "ATP", "value": ">50 µM"}
{"SMILES": "CC(C)(C)OC(=O)N(CCCCCCN(Cc1ccccc1)C(=O)OC(C)(C)C)CCCCCC(=O)Nc1ccn([C@@H]2CS[C@@H](COC(=O)CCCCCN(CCCCCCN(Cc3ccccc3)C(=O)OC(C)(C)C)C(=O)OC(C)(C)C)O2)c(=O)n1", "value": "10 µM"}
{"SMILES": "C=C1CN(S(=O)(=O)c2ccc(COCCCC)cc2)CCCN(Cc2ccccc2)CCCN(S(=O)(=O)c2ccc(COCCCC)cc2)C1", "method": "trypan blue / propidium iodide", "value": "30.5 µM"}
{"SMILES": "CC(=O)/C=C(\\C)OCCCCCCCCn1c(=O)c(C)cn([C@@H]2O[C@H](CO[Si](C)(C)C(C)(C)C)C3(OS(=O)(=O)C=C3N)[C@H]2O[Si](C)(C)C(C)(C)C)c1=O", "value": "67 µM"}
{"SMILES": "CC(C)(C)OC(=O)N(CCCCCC(=O)Nc1ccn([C@@H]2CS[C@@H](CO)O2)c(=O)n1)CCCCN(Cc1ccccc1)C(=O)OC(C)(C)C", "value": "10 µM"}
{"SMILES": "Nc1ncnc2c1ncn2[C@H]1C=C[C@@H](CO)[C@@H]1CO", "value": ">100 µg/mL"}
{"SMILES": "CN1CC(=O)C(=O)C=C1Cn1cnc([N+](=O)[O-])c1Nc1ccc(C#N)cc1", "method": "MTT", "value": ">250 µM"}
{"SMILES": "Cc1c(C(C)(O)c2cccc3ccccc23)n(COCc2ccccc2)c(=O)[nH]c1=O", "method": "MTT", "value": "41.78 µM"}
{"SMILES": "CC(C)(C)OC(=O)N(CCCCCC(=O)OC[C@H]1O[C@@H](n2ccc(N)nc2=O)CS1)CCCCN(Cc1ccccc1)C(=O)OC(C)(C)C", "value": "10 µM"}
{"SMILES": "COc1c(-c2cc(C)on2)c(O)c(S(=O)(=O)OC2CCCC2)c2occc12", "method": "MTT", "value": "320 µM"}
{"SMILES": "CC(C)(C)OC(=O)N(CCCCCC(=O)Nc1ccn([C@H]2CS[C@@H](COC(=O)CCCCCN(CCCCN(Cc3ccccc3)C(=O)OC(C)(C)C)C(=O)OC(C)(C)C)O2)c(=O)n1)CCCCN(Cc1ccccc1)C(=O)OC(C)(C)C", "value": "10 µM"}
{"SMILES": "Cc1cc(C)nc(NS(=O)(=O)c2ccc(N=C3C(=O)N(CN4CCN(c5cc6c(cc5F)c(=O)c(C(=O)O)cn6C5CC5)CC4)c4ccc(F)cc43)cc2)n1", "method": "MTT", "value": "119 µM"}
{"SMILES": "C=C1CN(S(=O)(=O)c2ccc(C)cc2)CCCN(CC2CC2)CCCN(S(=O)(=O)c2ccc(C)cc2)C1", "method": "trypan blue / propidium iodide", "value": "36.1 µM"}
{"SMILES": "O=C(CCCCCNCc1ccccc1)Nc1ccn([C@H]2CS[C@@H](CO)O2)c(=O)n1", "value": ">50 µM"}

3 of the rows above, restated:

CCC(c1ccccc1C)c1c(C)c(=O)[nH]c(=O)n1COCc1ccccc1 ; method: MTT ; value: 43.12 µM
C=C1CN(S(=O)(=O)c2ccc(COCCCC)cc2)CCCN(Cc2ccccc2)CCCN(S(=O)(=O)c2ccc(COCCCC)cc2)C1 ; method: trypan blue / propidium iodide ; value: 30.5 µM
CCc1c(Cc2cc(Cl)cc(Cl)c2)n(COC2CCc3ccccc32)c(=O)[nH]c1=O ; method: MTT ; value: 35 µM